Measurements reported in PubChem BioAssay AID1259414 (Drosophila RNAi Screening Center, 2018).
The screen tested about 24,000 reagents; this is an unselected part of those that have a named target and a result. Of all reagents, about 1,210 (5%) were called active. 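Inactive calls also include excluded dsRNAs with several or no targets, genes unexpressed in JW18, and well A1, regardless of score.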 The numbers tell different reagents against one gene apart. Names joined by + are all predicted targets of the reagent.

Purpose: 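Host factors increasing or decreasing Wolbachia levels in cultured fly cells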 (primary screen)
Cell system: Drosophila JW18 cells infected with Wolbachia
Reagent: long dsRNA against Drosophila genes, 0.25 µg dsRNA per well of a 384-well plate
Duration: 5 days
Challenge: cells persistently infected with Wolbachia before knock-down; no added drug
Detection: 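Imaged fluorescence in situ signal for Wolbachia 23S rRNA per DAPI-counted host cell, given as a robust z-score within each plate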
Direction: Wolbachia per cell robust z: higher = more Wolbachia per host cell than the plate typical
Rule for the call: 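Hit when robust z is 1.5 or more, or -1.5 or less, in at least two of three replicates; excludes dsRNAs with several or no targets, genes not expressed in JW18 and well A1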

"Wolbachia per cell robust z, rep 1","Wolbachia per cell robust z, rep 2","Wolbachia per cell robust z, rep 3",activity call,Gene,dsRNA no.
0.131,0.0879,0.939,inactive,CG34279,1
1.28,-2.58,-0.624,inactive,CG14232,1
0.787,1.21,1.22,inactive,CG14232,2
0.85,-0.402,0.625,inactive,Mau2,1
-0.0936,0.527,-0.913,inactive,Dpy-30L1,1
-1.84,-1.36,-2.28,active,Dpy-30L1,2
-0.706,-0.442,0.221,inactive,Nlp,1
0.336,1.19,0.76,inactive,Nlp,2
-0.138,0.182,-0.682,inactive,pre-mod(mdg4)-AD + pre-mod(mdg4)-X + pre-mod(mdg4)-W + 3 more,1
0.199,0.685,-3.31,inactive,Lcp65Ac,1
0.229,-0.321,-1.24,inactive,Lcp65Ac,2
0.199,0.606,1.43,inactive,CG31269,1
-0.667,-2.61,-1.04,inactive,CG31269,2
0.161,-0.109,-1.11,inactive,CG14629,1
-0.125,0.629,1.02,inactive,CG14629,2
-1.74,-1.8,0.791,active,CG17776,1
1.03,-1.21,-0.995,inactive,CG17776,2
0.0778,-0.524,-1.15,inactive,Sgp,1
-1.01,-1.09,-2.37,inactive,csul,1
0.233,1.19,-0.647,inactive,CG13712,1
-0.148,-0.923,-0.197,inactive,abd-A,1
-0.934,-0.0376,-0.0134,inactive,abd-A,2
0.397,-0.893,0.673,inactive,abd-A,3
-0.297,-0.0192,-0.644,inactive,Rbp4,1
-2.84,-0.524,1.46,inactive,Rbp4,2
-0.372,0.712,0.166,inactive,Vajk3,1
-0.356,-0.147,0.615,inactive,Vajk3,2
-1.09,-0.356,0.0944,inactive,CG13047,1
-4.54,-0.514,-0.666,inactive,CG13047,2

Part of the list above, reduced to “Wolbachia per cell robust z, rep 1”.
Mau2 = 0.85
Dpy-30L1 #1 = -0.0936
